How the values were obtained:
Rattus norvegicus = species on record: Rattus norvegicus; assay: Displacement of [3H]flunitrazepam from rat brain central BZD at 10 uM after 60 mins by radioligand binding assay relative to control
[1] = molecular target: Type-2 angiotensin II receptor (Homo sapiens) (UniProt P50052); assay: Displacement of [125I]CGP 42112A from recombinant human AT2 at 10 uM after 240 mins by scintillation counting method relative to control
[2] = molecular target: Histamine H1 receptor (Homo sapiens) (UniProt P35367); assay: Displacement of [3H]pyrilamine from human recombinant histamine H1 receptor at 10 uM after 60 mins by scintillation counting analysis relative to control

The chains behind the UniProt entries cited, without tags or fusion partners. Where a name states a change or a piece, a line headed by the entry shows the natural chain unless it says otherwise.
UniProt P50052: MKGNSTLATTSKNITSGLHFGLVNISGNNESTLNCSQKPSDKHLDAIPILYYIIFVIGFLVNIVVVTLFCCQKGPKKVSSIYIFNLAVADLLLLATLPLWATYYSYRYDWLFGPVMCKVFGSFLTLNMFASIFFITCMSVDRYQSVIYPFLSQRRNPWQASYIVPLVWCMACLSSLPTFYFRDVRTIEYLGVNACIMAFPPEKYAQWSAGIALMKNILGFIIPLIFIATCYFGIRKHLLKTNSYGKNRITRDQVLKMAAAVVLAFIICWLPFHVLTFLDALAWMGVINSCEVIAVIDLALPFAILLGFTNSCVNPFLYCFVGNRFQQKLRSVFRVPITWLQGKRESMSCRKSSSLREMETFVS
UniProt P35367, whole entry, looked up: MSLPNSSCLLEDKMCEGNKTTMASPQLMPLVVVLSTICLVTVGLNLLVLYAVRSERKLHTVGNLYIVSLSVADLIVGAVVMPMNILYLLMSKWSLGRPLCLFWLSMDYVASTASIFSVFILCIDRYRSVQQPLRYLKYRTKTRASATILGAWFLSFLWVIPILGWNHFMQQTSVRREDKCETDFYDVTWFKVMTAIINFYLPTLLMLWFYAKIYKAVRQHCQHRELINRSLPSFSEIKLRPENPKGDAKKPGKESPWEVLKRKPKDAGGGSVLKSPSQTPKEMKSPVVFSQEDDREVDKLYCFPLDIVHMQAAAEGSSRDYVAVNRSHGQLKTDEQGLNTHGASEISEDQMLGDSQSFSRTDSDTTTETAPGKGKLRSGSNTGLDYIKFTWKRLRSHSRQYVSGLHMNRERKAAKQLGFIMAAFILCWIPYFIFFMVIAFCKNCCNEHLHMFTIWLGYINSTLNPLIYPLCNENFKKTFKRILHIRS

## C[C@H](O)[C@H]1NC(=O)[C@@H]2NC(=O)[C@@H](NC(=O)CN)CSSC[C@H](NC(=O)[C@H](CCCNC(=N)N)NC(=O)[C@@H]3CCCN3C(=O)[C@H](CC(O)O)NC1=O)C(=O)N[C@@H](CCCNC(=N)N)C(=O)N[C@@H](Cc1ccc(O)c(I)c1)C(=O)N[C@@H](CCC(N)=O)C(=O)N[C@H](C(=O)N[C@H](CC(=O)N[C@@H](CCCNC(=N)N)C(=O)O)Cc1ccc(O)cc1)CSCS2
Rattus norvegicus
  Activity: 11.6%
[1]
  Activity: 19.3%
[2]
  Activity: 5.6%

Source: ChEMBL document CHEMBL5034007, “Discovery of Methylene Thioacetal-Incorporated α-RgIA Analogues as Potent and Stable Antagonists of the Human α9α10 Nicotinic Acetylcholine Receptor for the Treatment of Neuropathic Pain” (2021)
